Results of unrelated studies side by side (data: NIAID ChemDB).

Common to all: tests in culture; species: Candida albicans; read by: broth dilution; endpoint: MIC

Rows are shuffled and stem from different studies. An empty or dashed field is not shown.

SMILES,setting,strain,result
Cc1ccc(-c2csc(NS(=O)(=O)C3C(=O)ONN3c3ccc(C)cc3)n2)cc1,,MTCC 227,1000 µg/mL
C[C@@H](c1ncncc1F)[C@](O)(Cn1cncn1)c1ccc(F)cc1F,,8649,<0.008 µg/mL
CCc1ccccc1-n1ncc2c([nH]c3ccccc32)c1=O,,,250 µg/mL
Nc1[nH]c(=O)ncc1F,,KCCM 50235,25 µg/mL
CCCCCCCCCCCC[n+]1cccc2ccccc21,48 h,ATCC 44859,0.01562 µg/mL
Cc1cc(Cl)[nH]c2ccc3c(=O)c(C(=O)NN=Cc4cc([N+](=O)[O-])ccc4O)cnc3c12,,,200 µg/mL
O=C(CSc1nnc(-c2ccc(N=Cc3cccs3)cc2)o1)Nc1ccc(Cl)c(Cl)c1,,MTCC 227,1000 µg/mL
CCC[CH2][Sn+3].Fc1ccccc1N=C([S-])N/N=C(\c1ccccc1)c1ccccn1,,ATCC 18804,26.84 µM
Cn1c2ccccc2c2cnn(-c3ccc(Cl)cc3)c(=O)c21,,,250 µg/mL
Cc1ccc(N2NOC(=O)C2S(=O)(=O)Nc2ccc(-n3c(-c4cccc(Br)c4)nc4ccccc4c3=O)cc2)cc1,,MTCC 227,500 µg/mL
Cc1cc(Cl)[nH]c2ccc3c(=O)c(C(=O)NN)cnc3c12,,,500 µg/mL
CCn1c2ccccc2c2cnn(-c3ccc(Br)cc3)c(=O)c21,,,250 µg/mL
Cc1ccc(N2NOC(=O)C2S(=O)(=O)Nc2ccc(-n3c(-c4ccccc4[N+](=O)[O-])nc4ccccc4c3=O)cc2)cc1,,MTCC 227,500 µg/mL
CC(=O)Sc1c[n+](C)c2ccccc2c1NCC(C)C,,ATCC 10231,512 µg/mL
C/C=C/C1=CC2=C(CO1)C(=O)[C@](C)(O)[C@H](OC(=O)c1c(C)cc(O)cc1O)C2,,,>256 µg/mL
COc1cc(C=NNC(=O)c2cnc3c(ccc4[nH]c(Cl)cc(C)c43)c2=O)ccc1O,,,250 µg/mL
COc1ccc(NC(=S)N/N=C/c2c[nH]c3ccccc23)cc1,,ATCC 24433,250 µg/mL
CCCCCCCCCCCC(=O)NC(CCCN)C(=O)NC(CCCN)C(N)=O,,ATCC 24433,50 µg/mL
Cc1ccc(N2N=C(c3c[nH]c4ccccc34)CC2c2ccc(Cl)c(Cl)c2)cc1,,ATCC 90028,200 µg/mL
C/C(=N\NC(=S)Nc1ccc([N+](=O)[O-])cc1)c1ccccn1,,ATCC 10231,10.7 µM
O=C(NN1C(=O)/C(=C/c2cc3ccccc3nc2Cl)N=C1c1ccccc1)c1ccc(F)cc1,,MTCC 227,100 µg/mL
COC1=CC(=O)C[C@@H](C)[C@]12Oc1c(Cl)c(OC)cc(OC)c1C2=O,,,6 µg/mL
COc1cc(C2C(Cl)C(=O)N2NC(=O)c2cnc3c(ccc4[nH]c(Cl)cc(C)c43)c2=O)ccc1O,,,1000 µg/mL
CCCC1=CC2=C(CO1)C(=O)[C@](C)(OC(=O)c1c(C)cc(O)c(O)c1OC)[C@H](O)C2,,,>256 µg/mL
CCC(C)CC(C)CCCCCCCCC(=O)N[C@H]1C[C@@H](O)[C@H](NCCN)NC(=O)[C@@H]2[C@@H](O)CCN2C(=O)[C@H]([C@H](O)CCN)NC(=O)[C@H]([C@H](O)[C@@H](O)c2ccc(O)cc2)NC(=O)[C@@H]2C[C@@H](O)CN2C(=O)[C@H]([C@@H](C)O)NC1=O,,17433,0.015 µg/mL
COc1ccc(C2C(Cl)C(=O)N2NC(=O)c2cnc3c(ccc4[nH]c(Cl)cc(C)c43)c2=O)cc1,,,500 µg/mL
Clc1ccccc1C(c1ccccc1)(c1ccccc1)n1ccnc1,,ATCC 10231,4 µg/mL
CC1=C(Cl)C(O)=CC(=O)C12Oc1cc(O)c(Cl)c(C)c1C2=O,,MTCC 227,500 µg/mL
O=C(CSc1nnc(-c2ccc(N=Cc3cccs3)cc2)o1)Nc1ccc(Cl)cc1,,MTCC 227,100 µg/mL
O=C(/C=C/c1c(Cl)cccc1Cl)c1c[nH]c2ccccc12,,ATCC 90028,200 µg/mL
O=C1C=CC[C@H](/C=C/c2ccccc2)O1,,,78.3 µg/mL
S=C(N/N=C/c1c[nH]c2ccccc12)NC1CCCCC1,,ATCC 24433,500 µg/mL
C/C(=N\NC([S-])=Nc1ccccc1F)c1ccccn1.CCC[CH2][Sn+3],,ATCC 18804,7.49 µM
COc1ccc(C=Nc2ccc(S(=O)(=O)Nn3c(Cc4ccccc4Nc4c(Cl)cccc4Cl)nc4ccccc4c3=O)cc2)cc1,,,500 µg/mL
Cn1ccnc1Cc1nccn1C,48 h,ATCC 10231,>512 µg/mL
CC1=CC[C@H]2C[C@@H]1C2(C)C.C[C@@H]1[C@H](O)[C@@H](C)/C=C/C=C/C=C/C=C/C=C/C=C/C=C/[C@H](O[C@@H]2O[C@H](C)[C@@H](O)[C@H](N)[C@@H]2O)C[C@@H]2O[C@](O)(C[C@@H](O)C[C@@H](O)[C@H](O)CC[C@@H](O)C[C@@H](O)CC(=O)O[C@H]1C)C[C@H](O)[C@H]2C(=O)O,,ATCC 10231,390 µg/mL
CC(=O)Sc1c[n+](C)c2ccccc2c1Nc1ccc(F)cc1,,ATCC 10231,512 µg/mL
C/C=C/C1=CC2=C(CO1)C(=O)[C@](C)(O)[C@H](OC(=O)c1c(C)cc(O)c(O)c1OC)C2,,,>256 µg/mL
CCCCCCCCCCCCCC(=O)NC(CCCN)C(=O)NC(CCCN)C(=O)NC(CCCN)C(N)=O,,ATCC 24433,6.25 µg/mL
CSc1c[n+](C)c2ccccc2c1Nc1ccc(C)cc1,,ATCC 10231,128 µg/mL
CCCCNC(=S)N/N=C/C=C/c1ccccc1,,ATCC 24433,250 µg/mL
COc1ccc(-c2nc3ccccc3c(=O)n2-c2ccc(NS(=O)(=O)C3C(=O)ONN3c3ccc(C)cc3)cc2)cc1[N+](=O)[O-],,MTCC 227,250 µg/mL
O=C(NN1C(=O)/C(=C/c2cc3ccccc3nc2Cl)N=C1c1ccccc1)c1cccc([N+](=O)[O-])c1,,MTCC 227,200 µg/mL
Cn1ccnc1C(CC(=O)O)c1nccn1C,24 h,ATCC 10231,>512 µg/mL
COc1cccc(NC(=O)CSc2nnc(-c3ccc(N=Cc4cccs4)cc3)o2)c1,,MTCC 227,125 µg/mL
C[C@@H]1[C@H](O)[C@@H](C)/C=C/C=C/C=C/C=C/C=C/C=C/C=C/[C@H](O[C@@H]2O[C@H](C)[C@@H](O)[C@H](N)[C@@H]2O)C[C@@H]2O[C@](O)(C[C@@H](O)C[C@@H](O)[C@H](O)CC[C@@H](O)C[C@@H](O)CC(=O)O[C@H]1C)C[C@H](O)[C@H]2C(=O)O,,ATCC 10231,0.048 µg/mL
CCC(C)n1ncn(-c2ccc(N3CCN(c4ccc(OC[C@H]5CO[C@](Cn6cncn6)(c6ccc(Cl)cc6Cl)O5)cc4)CC3)cc2)c1=O,,63U,1 µg/mL
O=C(/C=C/c1cc(Cl)cc(Cl)c1)c1c[nH]c2ccccc12,,ATCC 90028,200 µg/mL
CCOc1ccc2nc3cc(N=C4NC(=O)/C(=C\c5ccc([N+](=O)[O-])o5)S4)ccc3c(N)c2c1,,ATCC 60193,62.5 µg/mL
C=C1CC[C@H]2C[C@@H]1C2(C)C,,UMIP 48.72,3000 µg/mL
Cc1ccc(NC(=O)CSc2nnc(-c3ccc(N=Cc4cccs4)cc3)o2)c(C)c1,,MTCC 227,1000 µg/mL
C/C(=N\NC([S-])=Nc1ccccc1[N+](=O)[O-])c1ccccn1.CCC[CH2][Sn+3],,ATCC 18804,7.13 µM
C[n+]1cc(SC(=O)c2ccccc2)c(Nc2ccc(Cl)cc2)c2ccccc21,,ATCC 10231,256 µg/mL
CCCCCCCCCCCCCCCC(=O)NC(CCCN)C(N)=O,,ATCC 24433,>100 µg/mL
C[C@H]1[C@H](O)[C@@H](C)/C=C/C=C/C=C/C=C/C=C/C=C/C=C/[C@H](O[C@@H]2O[C@H](C)[C@@H](O)[C@H](N)[C@@H]2O)C[C@@H]2O[C@](O)(C[C@@H](O)C[C@@H](O)CC[C@H](O)[C@@H](O)C[C@@H](O)CC(=O)O[C@H]1C)C[C@H](O)[C@H]2C(=O)O,,Y0109,4 µg/mL
O=C(NN1C(=O)/C(=C/c2cc3ccccc3nc2Cl)N=C1c1ccccc1)c1ccncc1,,MTCC 227,200 µg/mL
Cn1ccnc1C(=O)c1nccn1C,48 h,ATCC 10231,>512 µg/mL
CCC(C)CC(C)CCCCCCCCC(=O)N[C@H]1C[C@@H](O)[C@H](NCCN)NC(=O)[C@@H]2[C@@H](O)CCN2C(=O)[C@H]([C@H](O)CCN)NC(=O)[C@H]([C@H](O)[C@@H](O)c2ccc(O)cc2)NC(=O)[C@@H]2C[C@@H](O)CN2C(=O)[C@H]([C@@H](C)O)NC1=O,,ATCC 90028,0.5 µg/mL
O=[N+]([O-])c1ccc(NC(=S)N/N=C/c2c[nH]c3ccccc23)cc1,,ATCC 24433,500 µg/mL
Cn1cnc(-c2ccccc2)c1,24 h,ATCC 10231,>512 µg/mL
CCCCCCCCCCCC(=O)NC(CCCN)C(=O)NC(CCCN)C(=O)NC(CCCN)C(=O)NC(CCCN)C(N)=O,,ATCC 24433,6.25 µg/mL
CC(C)(O)c1cn(-c2ccc(Cl)cc2)nn1,,URM 4387,128 µg/mL
CSc1c[n+](C)c2ccccc2c1Nc1ccc(Cl)cc1,,ATCC 10231,128 µg/mL
CCOC(=O)c1c(N)oc2ccc(O)cc12,,KCCM 50235,25 µg/mL
O=C(/C=C/c1ccc(Cl)c(Cl)c1)c1c[nH]c2ccccc12,,ATCC 90028,200 µg/mL
CCCCCCCCCCCCCC(=O)NC(CCCN)C(=O)NC(CCCN)C(N)=O,,ATCC 24433,25 µg/mL
C/C(=N\NC(=O)c1ccncc1)c1cc2ccccc2oc1=O,,ATCC 2091,50 µg/mL
CCCCCCCCCCCC(=O)NC(CCCN)C(N)=O,,ATCC 24433,>100 µg/mL
OC(Cn1cncn1)(Cn1cncn1)c1ccc(F)cc1F,,,1 µg/mL
Cc1ccc(N2NOC(=O)C2S(=O)(=O)Nc2nc3ccc(Br)cc3s2)cc1,,MTCC 227,>1000 µg/mL
CCOC(=O)c1c(C=O)c2ccccc2n1C,,,250 µg/mL
Nc1ncccc1-c1cc(Cc2ccc(COc3ccccn3)cc2)no1,,8649,<0.008 µg/mL

The first 9 rows once more:

{"SMILES": "Cc1ccc(-c2csc(NS(=O)(=O)C3C(=O)ONN3c3ccc(C)cc3)n2)cc1", "strain": "MTCC 227", "result": "1000 µg/mL"}
{"SMILES": "C[C@@H](c1ncncc1F)[C@](O)(Cn1cncn1)c1ccc(F)cc1F", "strain": "8649", "result": "<0.008 µg/mL"}
{"SMILES": "CCc1ccccc1-n1ncc2c([nH]c3ccccc32)c1=O", "result": "250 µg/mL"}
{"SMILES": "Nc1[nH]c(=O)ncc1F", "strain": "KCCM 50235", "result": "25 µg/mL"}
{"SMILES": "CCCCCCCCCCCC[n+]1cccc2ccccc21", "setting": "48 h", "strain": "ATCC 44859", "result": "0.01562 µg/mL"}
{"SMILES": "Cc1cc(Cl)[nH]c2ccc3c(=O)c(C(=O)NN=Cc4cc([N+](=O)[O-])ccc4O)cnc3c12", "result": "200 µg/mL"}
{"SMILES": "O=C(CSc1nnc(-c2ccc(N=Cc3cccs3)cc2)o1)Nc1ccc(Cl)c(Cl)c1", "strain": "MTCC 227", "result": "1000 µg/mL"}
{"SMILES": "CCC[CH2][Sn+3].Fc1ccccc1N=C([S-])N/N=C(\\c1ccccc1)c1ccccn1", "strain": "ATCC 18804", "result": "26.84 µM"}
{"SMILES": "Cn1c2ccccc2c2cnn(-c3ccc(Cl)cc3)c(=O)c21", "result": "250 µg/mL"}